Measured values from several laboratories, pooled; numbers as filed in NIAID ChemDB.

Shared fields: cytotoxicity tests; cells: CEM; read by: XTT; measure: CC50

Rows are shuffled and stem from different studies. CCn is the concentration with n% toxicity to the cells.

structure	value
CO[C@H]1N([C@H]2C=C[C@@H](CO)O2)C(=O)NC(=O)[C@]1(C)I	66 µM
COc1nc(N[C@H]2OC[C@@H](O)[C@H](O)[C@H]2O)c(N=C[C@@H](O)[C@H](O)[C@H](O)CO)c(=O)n1C	>580 µM
Cc1cc(S(=O)(=O)N2CCNC2=O)c(SC(=O)c2ccccc2)cc1Cl	75 µM
O=C(NCCCCCCNC(=O)c1cc2cc(O)c(O)cc2[nH]1)c1cc2cc(O)c(O)cc2[nH]1	26 µM
Cc1cc2c(cc1Cl)SC(C(=O)c1ccc(Cl)cc1)=NS2(=O)=O	159 µM
O=C(NCCc1ccccc1)c1cc2cc(O)c(O)cc2[nH]1	24 µM
CO[C@H]1N([C@H]2C[C@H](F)[C@@H](CO)O2)C(=O)NC(=O)[C@@]1(C)Cl	>800 µM
Cc1cc(S(=O)(=O)NC2=NCCN2)c(SCC(N)=O)cc1Cl	>200 µM
Cc1cc(Cl)cc2c1S(=O)(=O)N=C(C(=O)c1ccc3ccccc3c1)S2	49.2 µM
O=C(NCCCNC(=O)c1cc2cc(O)c(O)cc2[nH]1)c1cc2cc(O)c(O)cc2[nH]1	3.6 µM
Cc1cc(S(=O)(=O)n2cccc2)c(SC/C(=N\NC(=O)Nc2ccccc2)c2ccc(Br)cc2)cc1Cl	92.1 µM
CC1(C)N=C(N)N=C(N)N1c1cccc(CCCCOc2ccccc2)c1	1.72 µM
COc1nc2nc([C@H](O)[C@@H](O)CO)cnc2c(=O)n1C	>220 µM
NC(=O)CCNC(=O)c1ccccc1SCc1ccc([N+](=O)[O-])o1	8.24 µM
O=C(NCCc1ccccc1)c1cc2cc3c(cc2[nH]1)OCO3	>200 µM
CO[C@H]1N([C@H]2C[C@H](F)[C@@H](CO)O2)C(=O)NC(=O)[C@]1(C)Cl	>800 µM
O=C(NCCCCNC(=O)c1cc2cc(O)c(O)cc2[nH]1)c1cc2cc(O)c(O)cc2[nH]1	26 µM
Cc1cc(Cl)cc2c1S(=O)(=O)N=C(C(=O)c1ccc(Cl)cc1)S2	>1000 µM
O=C(NCc1ccccc1)c1cc2cc3c(cc2[nH]1)OCO3	>200 µM
Cc1cc(S(=O)(=O)n2cccc2)c(SCC#N)cc1Cl	>200 µM

The last 2 rows once more:

| structure | value |
|---|---|
| O=C(NCc1ccccc1)c1cc2cc3c(cc2[nH]1)OCO3 | >200 µM |
| Cc1cc(S(=O)(=O)n2cccc2)c(SCC#N)cc1Cl | >200 µM |